The values below come from publication PMC7617978, “Anti-trypanosomal quinazolines targeting lysyl-tRNA synthetases show partial efficacy in a mouse model of acute Chagas disease” (Science translational medicine, 2025).

The subject of the assay is T. cruzi (Sylvio X10/7A1 strain) epimastigote. It is filed as cell-based. To be noted: in vitro; parasite not stated (discussion).

As for `Cc1nc(N)c2c(F)c(F)c(NC3CCCC3)c(F)c2n1` [DMU371, N7-Cyclopentyl-5,6,8-trifluoro-2-methylquinazoline-4,7-diamine], the “resistance conferred by mutation of a single amino acid in the KRS1 active site” value is over 20 fold.
